# PubChem BioAssay AID624099 | ICCB-Longwood | 2012
# Assay: 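Human genes that papillomavirus E2 requires to repress the HPV18 LCR promoter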 (primary screen)
# Cells: human C33A cervical carcinoma cells (HPV-negative) stably expressing BPV1 E2 and an HPV18 LCR luciferase reporter
# Reagent: siRNA pool against human genes, 40 nM
# Timing: 72 h
# Measured: 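HPV18 LCR reporter light per well, converted to plate-wise z-scores that exclude control wells, and averaged over triplicate plates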
# Scale: mean z-score and z-score: higher = stronger reporter signal, weaker E2 silencing
# Rule for the call: 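Mean z ≥ 2 together with z ≥ 2 in two or more of the three replicates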
# The deposit covers about 21,000 reagents; shown is an unselected part. In the full data, 497 (2.4%) got an active call. 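Higher z means weaker E2 silencing; only reporter increases were scored, and knock-downs that hurt cell survival may mask genuine repressor factors.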 Entries without a mark were called inactive. The numbers tell different reagents against one gene apart.
gene knocked down,reagent no.,mean z-score,"z-score, replicate A","z-score, replicate B","z-score, replicate C"
NCOA5 (GeneID 57727),1,1.01,0.98,1.43,0.61
SLC9A8 (GeneID 23315),1,-1,-0.9,-0.97,-1.12
CFAP20 (GeneID 29105),1,0.17,0.45,0.14,-0.1
LONP2 (GeneID 83752),1,1.12,0.99,1.29,1.09
FBXO25 (GeneID 26260),1,-0.38,-0.47,-0.22,-0.46
PAEP (GeneID 5047),1,-0.69,-0.58,-0.71,-0.77
MYRIP (GeneID 25924),1,0.13,0.26,0.2,-0.06
PPP1R12A (GeneID 4659),1,0.57,0.52,0.61,0.58
AK9 (GeneID 221264),1,-1.63,-1.46,-1.94,-1.48
AK9 (GeneID 221264),2,0,0.33,-0.03,-0.31
YTHDF1 (GeneID 54915),1,-1.39,-1.28,-1.36,-1.54
GIT2 (GeneID 9815),1,1.14,1.16,1.03,1.24
TSPAN6 (GeneID 7105),1,0.56,0.4,0.67,0.61
MXI1 (GeneID 4601),1,0.08,0,-0.07,0.29
APOL4 (GeneID 80832),1,1.26,1.43,0.98,1.36
GSTA1 (GeneID 2938),1,-1.77,-1.85,-1.67,-1.81
SLC1A5 (GeneID 6510),1,0.02,0.02,0.16,-0.12
GAGE7 (GeneID 2579),1,-1.26,-1.25,-1.36,-1.17
LCTL (GeneID 197021),1,-0.53,-0.41,-0.81,-0.38
LINC01140 (GeneID 339524),1,-0.46,-0.63,-0.37,-0.37
NOL12 (GeneID 79159),1,-1.28,-1.35,-1.39,-1.11
UBN2 (GeneID 254048),1,0.47,0.76,0.44,0.2
LOC401356 (retired record) (GeneID 401356),1,-0.81,-0.95,-0.43,-1.04

3 entries from above, arranged by “z-score, replicate C”, lowest first.
gene knocked down,reagent no.,mean z-score,"z-score, replicate A","z-score, replicate B","z-score, replicate C"
PAEP (GeneID 5047),1,-0.69,-0.58,-0.71,-0.77
FBXO25 (GeneID 26260),1,-0.38,-0.47,-0.22,-0.46
LONP2 (GeneID 83752),1,1.12,0.99,1.29,1.09
